{"source": "PubChem BioAssay AID1259414 (Drosophila RNAi Screening Center, 2018)", "screen": "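Host factors increasing or decreasing Wolbachia levels in cultured fly cells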 (primary screen)", "system": "Drosophila JW18 cells infected with Wolbachia", "knock-down reagent": "long dsRNA against Drosophila genes, 0.25 µg dsRNA per well of a 384-well plate", "time to read-out": "5 days", "treatment": "cells persistently infected with Wolbachia before knock-down; no added drug", "detection": "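Automated imaging of bacterial rRNA staining divided by host cell count, reported as plate-normalised robust z-score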", "scale": "Wolbachia per cell robust z: higher = more Wolbachia per host cell than the plate typical", "rule for the call": "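Hit when robust z is 1.5 or more, or -1.5 or less, in at least two of three replicates; excludes dsRNAs with several or no targets, genes not expressed in JW18 and well A1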", "note": "The screen tested about 24,000 reagents; this is an unselected part of those that have a named target and a result. Over the whole deposit, about 1,210 (5%) were called active. 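Inactive calls also include excluded dsRNAs with several or no targets, genes unexpressed in JW18, and well A1, regardless of score.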 Reagents against one gene are numbered here. A plus sign joins genes that one reagent is predicted to hit."}
{"Target gene":"CG3982","reagent":1,"Wolbachia per cell robust z, rep 1":0.857,"Wolbachia per cell robust z, rep 2":0.25,"Wolbachia per cell robust z, rep 3":-2.73,"activity call":"inactive"}
{"Target gene":"CG3982","reagent":2,"Wolbachia per cell robust z, rep 1":1.23,"Wolbachia per cell robust z, rep 2":1.76,"Wolbachia per cell robust z, rep 3":0.061,"activity call":"inactive"}
{"Target gene":"CG16786","reagent":1,"Wolbachia per cell robust z, rep 1":0.982,"Wolbachia per cell robust z, rep 2":-0.309,"Wolbachia per cell robust z, rep 3":-1.73,"activity call":"inactive"}
{"Target gene":"MFS16","reagent":1,"Wolbachia per cell robust z, rep 1":-1.04,"Wolbachia per cell robust z, rep 2":-0.248,"Wolbachia per cell robust z, rep 3":-0.555,"activity call":"inactive"}
{"Target gene":"MFS16","reagent":2,"Wolbachia per cell robust z, rep 1":-0.303,"Wolbachia per cell robust z, rep 2":-0.599,"Wolbachia per cell robust z, rep 3":-0.752,"activity call":"inactive"}
{"Target gene":"CG15577","reagent":1,"Wolbachia per cell robust z, rep 1":-1.72,"Wolbachia per cell robust z, rep 2":-0.00881,"Wolbachia per cell robust z, rep 3":-0.793,"activity call":"inactive"}
{"Target gene":"CG15638","reagent":1,"Wolbachia per cell robust z, rep 1":0.399,"Wolbachia per cell robust z, rep 2":-0.818,"Wolbachia per cell robust z, rep 3":1.04,"activity call":"inactive"}
{"Target gene":"san","reagent":1,"Wolbachia per cell robust z, rep 1":-0.474,"Wolbachia per cell robust z, rep 2":0.588,"Wolbachia per cell robust z, rep 3":0.433,"activity call":"inactive"}
{"Target gene":"mub","reagent":1,"Wolbachia per cell robust z, rep 1":-0.673,"Wolbachia per cell robust z, rep 2":-0.219,"Wolbachia per cell robust z, rep 3":0.0517,"activity call":"inactive"}
{"Target gene":"mub","reagent":2,"Wolbachia per cell robust z, rep 1":0.00438,"Wolbachia per cell robust z, rep 2":-1.68,"Wolbachia per cell robust z, rep 3":0.368,"activity call":"inactive"}

Records above whose target name starts with M or m:
{"Target gene":"MFS16","reagent":1,"Wolbachia per cell robust z, rep 1":-1.04,"Wolbachia per cell robust z, rep 2":-0.248,"Wolbachia per cell robust z, rep 3":-0.555,"activity call":"inactive"}
{"Target gene":"MFS16","reagent":2,"Wolbachia per cell robust z, rep 1":-0.303,"Wolbachia per cell robust z, rep 2":-0.599,"Wolbachia per cell robust z, rep 3":-0.752,"activity call":"inactive"}
{"Target gene":"mub","reagent":1,"Wolbachia per cell robust z, rep 1":-0.673,"Wolbachia per cell robust z, rep 2":-0.219,"Wolbachia per cell robust z, rep 3":0.0517,"activity call":"inactive"}
{"Target gene":"mub","reagent":2,"Wolbachia per cell robust z, rep 1":0.00438,"Wolbachia per cell robust z, rep 2":-1.68,"Wolbachia per cell robust z, rep 3":0.368,"activity call":"inactive"}

Continued:
{"Target gene":"CG11298","reagent":1,"Wolbachia per cell robust z, rep 1":-0.613,"Wolbachia per cell robust z, rep 2":-4.42,"Wolbachia per cell robust z, rep 3":-3.88,"activity call":"inactive"}
{"Target gene":"inv","reagent":1,"Wolbachia per cell robust z, rep 1":0.443,"Wolbachia per cell robust z, rep 2":0.46,"Wolbachia per cell robust z, rep 3":0.235,"activity call":"inactive"}
{"Target gene":"inv","reagent":2,"Wolbachia per cell robust z, rep 1":0.747,"Wolbachia per cell robust z, rep 2":0.64,"Wolbachia per cell robust z, rep 3":0.0726,"activity call":"inactive"}
{"Target gene":"Zmynd8","reagent":1,"Wolbachia per cell robust z, rep 1":0.607,"Wolbachia per cell robust z, rep 2":0.765,"Wolbachia per cell robust z, rep 3":0.933,"activity call":"inactive"}
{"Target gene":"Zmynd8","reagent":2,"Wolbachia per cell robust z, rep 1":1.6,"Wolbachia per cell robust z, rep 2":1.33,"Wolbachia per cell robust z, rep 3":1.65,"activity call":"active"}
{"Target gene":"Obp56f","reagent":1,"Wolbachia per cell robust z, rep 1":-0.457,"Wolbachia per cell robust z, rep 2":0.148,"Wolbachia per cell robust z, rep 3":0.347,"activity call":"inactive"}
{"Target gene":"CG13135","reagent":1,"Wolbachia per cell robust z, rep 1":-0.328,"Wolbachia per cell robust z, rep 2":-0.643,"Wolbachia per cell robust z, rep 3":0.258,"activity call":"inactive"}
{"Target gene":"CG13135","reagent":2,"Wolbachia per cell robust z, rep 1":-0.664,"Wolbachia per cell robust z, rep 2":-2.38,"Wolbachia per cell robust z, rep 3":-2.12,"activity call":"inactive"}
{"Target gene":"CG5177","reagent":1,"Wolbachia per cell robust z, rep 1":0.377,"Wolbachia per cell robust z, rep 2":0.091,"Wolbachia per cell robust z, rep 3":0.0495,"activity call":"inactive"}
{"Target gene":"Ccn","reagent":1,"Wolbachia per cell robust z, rep 1":-0.839,"Wolbachia per cell robust z, rep 2":-0.867,"Wolbachia per cell robust z, rep 3":-2.21,"activity call":"inactive"}
{"Target gene":"Ccn","reagent":2,"Wolbachia per cell robust z, rep 1":-1.47,"Wolbachia per cell robust z, rep 2":0.0907,"Wolbachia per cell robust z, rep 3":-0.914,"activity call":"inactive"}
{"Target gene":"Ccn","reagent":3,"Wolbachia per cell robust z, rep 1":-2.69,"Wolbachia per cell robust z, rep 2":-0.572,"Wolbachia per cell robust z, rep 3":0.546,"activity call":"inactive"}
{"Target gene":"Ccn","reagent":4,"Wolbachia per cell robust z, rep 1":-0.323,"Wolbachia per cell robust z, rep 2":-0.828,"Wolbachia per cell robust z, rep 3":-1.16,"activity call":"inactive"}
{"Target gene":"Mgstl + CR12628","reagent":1,"Wolbachia per cell robust z, rep 1":-0.549,"Wolbachia per cell robust z, rep 2":0.584,"Wolbachia per cell robust z, rep 3":0.775,"activity call":"inactive"}
